{"sequences": {"note": "By UniProt entry, the sequences of proteins in these tests, tags left out. Residues count along the entry.", "UniProt Q9WMX2, 1027-1657 limits assumed": "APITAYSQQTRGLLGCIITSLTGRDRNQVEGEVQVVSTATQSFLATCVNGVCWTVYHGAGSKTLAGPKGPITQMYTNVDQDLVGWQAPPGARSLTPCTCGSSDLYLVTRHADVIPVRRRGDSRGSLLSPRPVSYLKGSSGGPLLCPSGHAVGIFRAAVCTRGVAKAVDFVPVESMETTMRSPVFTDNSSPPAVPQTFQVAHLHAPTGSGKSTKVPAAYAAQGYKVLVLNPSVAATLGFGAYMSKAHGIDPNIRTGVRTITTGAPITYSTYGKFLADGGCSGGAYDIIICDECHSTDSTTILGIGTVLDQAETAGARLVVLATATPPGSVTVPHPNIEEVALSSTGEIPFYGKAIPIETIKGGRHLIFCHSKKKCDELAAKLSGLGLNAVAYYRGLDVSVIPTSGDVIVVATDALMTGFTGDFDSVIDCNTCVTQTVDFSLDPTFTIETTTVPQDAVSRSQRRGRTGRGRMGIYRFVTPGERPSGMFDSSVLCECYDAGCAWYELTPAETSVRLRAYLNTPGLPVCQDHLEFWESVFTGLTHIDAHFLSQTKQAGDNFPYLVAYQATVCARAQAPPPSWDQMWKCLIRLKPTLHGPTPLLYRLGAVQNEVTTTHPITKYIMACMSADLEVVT"}, "source": "patent US8575208B2", "about": "“Inhibitors of serine proteases” (priority 2007, dated 2013)", "molecular_target": "HCV NS3 serine protease (UniProt Q9WMX2)", "experiment": "HCV enzymatic assay (HCV NS3 peptide cleavage assays, apparent Ki)", "type": "biochemical, hepatitis C virus", "details": "read-out: Activity (HCV enzymatic assay activity); serine protease activity measured using the HCV Enzyme Assays; Assay No. 1 / Assay No. 2 not given", "method": "This assay is a modification of that described by Landro, et al. (Landro J A, Raybuck S A, Luong Y C, O'Malley E T, Harbeson S L, Morgenstern K A, Rao G and Livingston D L. Biochemistry 1997, 36, 9340-9348), and uses a peptide substrate (NS5AB), based on the NS5A/NS5B cleavage site for genotype la HCV. The substrate stock solution (25 mM) was prepared in DMSO containing 0.2 M DTT and stored at −20° C. A synthetic peptide cofactor (KK4A) was used as a substitute for the central core region of NS4A. […]\nThe SMSY product was separated from substrate and KK4A using a microbore separation method. […] The SMSY product peak was quantitated using the data collected at […]. […]\nEnzymatic activity was assessed by separation of substrate and products by reverse phase HPLC. The instrument used was a Agilent 1100 with a G1322A degasser, either a G1312A binary pump or a G1311A quaternary pump, a G1313A autosampler, a G1316A column thermostated chamber, a G1321A fluorescence detector and a G1315A diode array detector. […] The C-terminal product peak (NH2-SMSY-COOH) was quantitated using the absorbance data collected at 210 ηm. […] The C-terminal product peak (NH2-SMSYT-Asp(EDANS)-KKK-COOH) was quantitated using the fluorescence data collected at 350 ηm excitation/490 ηm emission. […]", "note": "The match of structure and compound is tentative.", "data": [{"smiles": "CCC[C@H](NC(=O)[C@@H]1C[C@@]2(CN(c3ccccc3)C(=O)O2)CN1C(=O)[C@@H](NC(=O)CC1CCCCC1)C(C)(C)C)C(=O)C(=O)NC1CC1", "values": [{"measurement": "Ki", "result": "< 410", "unit": "nM"}]}]}
